Sequences of proteins named here, by UniProt entry; tags and fusion partners are left off. Residues count along the entry.
UniProt K9N7C7, 3248-3553 limits assumed: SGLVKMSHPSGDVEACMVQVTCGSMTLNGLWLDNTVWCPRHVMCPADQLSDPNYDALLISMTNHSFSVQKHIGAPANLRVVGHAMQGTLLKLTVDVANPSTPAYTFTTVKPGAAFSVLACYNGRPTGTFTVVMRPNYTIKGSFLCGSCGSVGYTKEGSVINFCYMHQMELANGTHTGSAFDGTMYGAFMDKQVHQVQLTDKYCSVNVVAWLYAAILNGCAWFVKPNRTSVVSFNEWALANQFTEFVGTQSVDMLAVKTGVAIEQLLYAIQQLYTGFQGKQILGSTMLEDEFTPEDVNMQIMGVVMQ

In publication PMC8989888, “Development of optimized drug-like small molecule inhibitors of the SARS-CoV-2 3CL protease for treatment of COVID-19” (Nature Communications, 2022):

Assays:
MERS-CoV 3CL protease = MERS-CoV 3CL protease (Middle East respiratory syndrome-related coronavirus, UniProt K9N7C7); assay: Mammalian cell-based 3CL protease inhibitor assay (HEK293T, crystal violet): MERS-CoV; details: read-out: MERS-CoV 3CLpro EC50; 293T cells, rescue of growth
SARS-CoV 3CL protease = SARS-CoV 3CL protease (Severe acute respiratory syndrome coronavirus, UniProt P0C6X7); assay: Mammalian cell-based 3CL protease inhibitor assay (HEK293T, crystal violet): SARS-CoV; details: read-out: SARS-CoV 3CLpro EC50; 293T cells, rescue of growth

`CC(C)C[C@H](NC(=O)OCc1ccccc1Cl)C(=O)N[C@@H](C[C@@H]1CCNC1=O)C(O)S(=O)(=O)O` (stereo partly drawn) [EB54] gave an EC50 (MERS-CoV 3CL protease) of 3200 nM and an EC50 (SARS-CoV 3CL protease) of 7800 nM.
`CC(C)C[C@H](NC(=O)OCc1ccc2ccccc2c1)C(=O)N[C@@H](C[C@@H]1CCNC1=O)C(O)S(=O)(=O)O` (stereo partly drawn) [EB56] gave an EC50 (MERS-CoV 3CL protease) of 1900 nM and an EC50 (SARS-CoV 3CL protease) of 2400 nM.
`CC(C)C[C@H](NC(=O)OCc1cccc(Cl)c1)C(=O)N[C@@H](C[C@@H]1CCNC1=O)C(O)S(=O)(=O)O` (stereo partly drawn) [EB46] gave an EC50 (MERS-CoV 3CL protease) of 2700 nM and an EC50 (SARS-CoV 3CL protease) of 1500 nM.
